# Experimental data published in patent publication US12545673B2, “Imidazopyridine derivative and pharmaceutical composition comprising same as active ingredient” (TSD LIFE SCIENCES CO., LTD., priority 2019, dated 2026).
# Test system: influenza virus PR8
# Assay: Antiviral effect evaluation 1, influenza-infected MDCK (MTT), PR8
# Format: cell-based
row,Structure (SMILES),Selectivity index: CC50/EC50 PR8
1,CCS(=O)(=O)N1CCC(Nc2c(Br)cnc3nc(-c4cc(C)n(-c5cccc(NS(C)(=O)=O)c5)c4C)[nH]c23)C1 (stereo not drawn),> 1
2,CCS(=O)(=O)N1CCC(Nc2c(Br)cnc3[nH]c(-c4cc(C)n(-c5cc(NS(C)(=O)=O)ccc5C)c4C)nc23)C1 (stereo not drawn),> 3.1
3,CCS(=O)(=O)N1CCC(Nc2c(Br)cnc3nc(-c4cc(C)n(-c5ccc(OCCN6CCOCC6)cc5)c4C)[nH]c23)C1 (stereo not drawn),> 9
